Assay results as given in publication PMC9841593 (ACS Medicinal Chemistry Letters, 2022).

Molecular target: influenza PAN endonuclease (Influenza A virus, UniProt C3W5S0, DEL52-64/INS51G)
Assay: PAN endonuclease fluorescence-quenching (FRET) nuclease activity assay
Type: biochemical, influenza A/California/04/2009(H1N1)
Conditions: for LE (ligand efficiency): 1.4(pIC50)/HAC; for LLE (lipophilic ligand efficiency): method of Nat. Rev. Drug Discovery 2014, 13, 105-121

Compound	LE (ligand efficiency)	LLE (lipophilic ligand efficiency)
NC(=O)c1[nH]c(Br)cc(=O)c1O [Compound 3]	0.82	6.23
O=C(O)c1[nH]c(Br)cc(=O)c1O [Compound 2]	0.83	6.32
CONC(=O)c1[nH]c(Br)cc(=O)c1O [Compound 5]	0.65	5.84
